Results of unrelated studies side by side (data: NIAID ChemDB).

Common to all: growth or infection tests; species: Cryptococcus neoformans

Two numbers with a dash give a range or band. Rows are shuffled and stem from different studies. ECn: concentration that inhibits the pathogen or its effect by n%. MIC50, MIC90 and the like: level of inhibition, or share of isolates inhibited. An empty or dashed field is not shown.

| compound | read by | read-out | strain or isolate | result |
|---|---|---|---|---|
| COCCNC(=O)[C@H]1[C@@H]2C[C@@H](O[C@@H]3O[C@H](C)[C@@H](O)[C@H](N)[C@@H]3O)/C=C/C=C/C=C/C=C/C=C/C=C/C=C/[C@H](C)[C@@H](O)[C@H](C)[C@H](C)OC(=O)C[C@H](O)C[C@H](O)[C@@H](O)CC[C@H](O)C[C@H](O)C[C@](O)(C[C@@H]1O)O2 | - | MIC | 3 strains | 0.8–3.2 µg/mL |
| CCn1cc(C(=O)O)c(=O)c2cc(F)c(N3CCN(CN4C(=O)/C(=N\c5ncc(Cc6cc(OC)c(OC)c(OC)c6)c(N)n5)c5cc(Br)ccc54)CC3)cc21 | - | MIC | - | 0.6 µg/mL |
| C[C@H]1[C@H](O)[C@@H](C)/C=C/C=C/C=C/C=C/C=C/C=C/C=C/[C@H](O[C@@H]2O[C@H](C)[C@@H](O)[C@H](N)[C@@H]2O)C[C@@H]2O[C@](O)(C[C@@H](O)C[C@@H](O)CC[C@H](O)[C@@H](O)C[C@@H](O)CC(=O)O[C@H]1C)C[C@H](O)[C@H]2C(=O)O | broth dilution | MIC | ATCC 32045 | 0.25 µg/mL |
| C[C@@H](N1CCN(c2ccc(OC(F)(F)C(F)F)cc2)C1=O)C(O)(Cn1cncn1)c1ccc(F)cc1F | - | MIC | TIMM1740 | <0.016 µg/mL |
| OCC1c2ccccc2SC1c1ccc2c(c1)OCO2 | - | MIC | Isolate 25 | 12.5 µg/mL |
| CCn1cc(C(=O)O)c(=O)c2cc(F)c(N3CCN(CN4C(=O)C(=Nc5ccc(S(=O)(=O)Nc6ncnc(OC)c6OC)cc5)c5cc(Cl)ccc54)CC3)cc21 | - | MIC | - | 2.44 µg/mL |
| Nc1ncc(/C=C/c2ccc([N+](=O)[O-])o2)nn1 | - | MIC | - | 5 µg/mL |
| CC(C(=O)O)N1C(=O)CSC1c1ccc(Cl)cc1 | broth dilution | EC50 | - | 33.91 µM |
| C[C@@H](n1ccn(-c2ccc(OCC(F)(F)C(F)F)cc2)c1=O)C(O)(Cn1cncn1)c1ccccc1F | - | MIC | TIMM1855 | 0.13 µg/mL |
| CCC(O)(C#Cc1c(C)nc(N)nc1N)CC | - | MIC | - | 12.5 µg/mL |
| COc1cc(O)c2c(c1)C(=O)c1c(cc3c(c1O)-c1c(cc(C)c(C(=O)NCC(=O)O)c1O)[C@H](O[C@@H]1O[C@H](C)[C@H](N)[C@H](O[C@@H]4OC[C@@H](O)[C@H](O)[C@H]4O)[C@H]1O)[C@H]3O)C2=O | - | MIC | D49 | 0.8 µg/mL |
| C[C@@H](N1CCN(c2ccc(-n3cnnn3)cc2)C1=O)[C@](O)(Cn1cncn1)c1ccc(F)cc1F | - | MIC | TIMM1740 | >16 µg/mL |
| Cc1ccc(-c2cc(-c3ccc(Cl)cc3)nc(/N=C3\C(=O)Nc4ccc(Cl)cc43)n2)cc1 | - | MIC | - | 39.06 µg/mL |
| OC(Cn1cncn1)(Cn1cncn1)c1ccc(F)cc1F | - | MIC | 3 | 3.13 µg/mL |
| CCn1cc(C(=O)O)c(=O)c2cc(F)c(N3CCN(CN4C(=O)C(=Nc5ccc(S(=O)(=O)Nc6ncccn6)cc5)c5ccccc54)CC3)cc21 | - | MIC | - | 2.44 µg/mL |
| COc1ccc(C2Sc3ccccc3C2CO)c(O)c1 | - | MIC | Isolate 25 | 12.5 µg/mL |
| Cc1cc2c3c(N)nc(N)nc3ccc2n1C | - | MIC | - | 6.2 µg/mL |
| CCn1cc(C(=O)O)c(=O)c2cc(F)c(N3CCN(CN4C(=O)C(=Nc5ccc(S(=O)(=O)Nc6ncnc(OC)c6OC)cc5)c5cc(Br)ccc54)CC3)cc21 | - | MIC | - | 1.22 µg/mL |
| CCC(C)CC(C)CCCCCCCCC(=O)N[C@H]1C[C@@H](O)[C@H](NCCN)NC(=O)[C@@H]2[C@@H](O)CCN2C(=O)[C@H]([C@H](O)CCN)NC(=O)[C@H]([C@H](O)[C@@H](O)c2ccc(O)cc2)NC(=O)[C@@H]2C[C@@H](O)CN2C(=O)[C@H]([C@@H](C)O)NC1=O | broth dilution | MIC | CBS 131 | 16 µg/mL |
| O=C(O)CN1C(=O)CSC1c1ccccn1 | broth dilution | EC50 | - | 78.61 µM |
| CC1(C)O[C@H]2OC(COCC(O)CNCCCCCCCCNC(O)COCC3O[C@@H]4OC(C)(C)O[C@@H]4[C@H]4OC(C)(C)O[C@@H]34)[C@@H]3OC(C)(C)O[C@@H]3[C@H]2O1 | - | MIC | - | 50 µg/mL |
| c1ccc(Cc2nc(CN3CCc4sccc4C3)n[nH]2)cc1 | agar | MIC | NCIM576 | >200 µg/mL |
| Cc1ccc(-c2cc(-c3ccc(Cl)cc3)nc(/N=C3\C(=O)N(CN4CCCCC4)c4ccccc43)n2)cc1 | - | MIC | - | 19.53 µg/mL |
| C[C@@H]1[C@H](O)[C@@H](C)/C=C/C=C/C=C/C=C/C=C/C=C/C=C/[C@H](O[C@@H]2O[C@H](C)[C@@H](O)[C@H](N)[C@@H]2O)C[C@@H]2O[C@](O)(C[C@@H](O)C[C@@H](O)[C@H](O)CC[C@@H](O)C[C@@H](O)CC(=O)O[C@H]1C)C[C@H](O)[C@H]2C(=O)O | broth dilution | EC50 | H99 | >10 µg/mL |
| COc1cccc(C2Sc3ccccc3C2CO)c1O | - | MIC | Isolate 25 | 6 µg/mL |
| N=C(N)c1ccc2nc(-c3cccc(-c4nc5ccc(C(=N)N)cc5[nH]4)n3)[nH]c2c1 | - | MIC80 | H99 | >100 µg/mL |
| C[C@@H](N1CCN(c2ccc(OCC(F)(F)C(F)F)cc2)C1=O)C(O)(Cn1cncn1)c1ccc(F)cc1F | - | MIC | TIMM1740 | 0.016 µg/mL |
| Cc1cc(NC(=O)c2ccc(NC(=O)COc3cccc(Cl)c3Cl)cc2)no1 | - | MIC | ATCC90112 | >100 µg/mL |
| OCC1c2ccccc2SC1c1cc(Cl)ccc1O | - | MIC | Isolate 25 | 6 µg/mL |
| C[C@H]1N(C(=O)c2ccc(C(F)(F)F)cc2)CCO[C@@]1(Cn1cncn1)c1ccc(F)cc1F | - | MIC | Isolate 4 | 2 µg/mL |
| O=C(O)CN1C(=O)CSC1c1ccc(Cl)cc1 | broth dilution | EC50 | - | 77.51 µM |
| CC(C(O)(Cn1cncn1)c1ccc(F)cc1F)S(C)(=O)=O | - | MIC | B4500 (AZOLE-S) | 5 µM |
| Fc1ccc(Cc2nc(CN3CCc4sccc4C3)n[nH]2)cc1 | agar | MIC | NCIM576 | 37.5 µg/mL |
| Cc1cc(NC(=O)c2cccc(NC(=O)COc3ccc(Cl)cc3)c2)no1 | - | MIC | ATCC90112 | >100 µg/mL |
| OC(Cn1cncn1)(Cn1cncn1)c1ccc(F)cc1F | - | MIC | TIMM0362 | 50 µg/mL |
| OCC1c2ccccc2SC1c1ccc(O)cc1O | - | MIC | Isolate 25 | 6 µg/mL |
| CN[C@H]1CC[C@@H](c2ccc(Cl)c(Cl)c2)c2ccccc21 | broth dilution | MFC | H99 | 10 µg/mL |
| CNC(=S)N/N=C(\N)c1ccccn1 | - | MIC100 | ATCC 24067A | 104 µM |
| N=C(N)c1ccc(OCCCCCOc2ccc(/C(N)=N\O)cc2)cc1 | - | MIC80 | H99 | >100 µg/mL |
| Clc1cccc(-c2n[nH]c(CN3CCc4sccc4C3)n2)c1 | agar | MIC | NCIM576 | 125 µg/mL |
| Cc1cc(NC(=O)c2cccc(NC(=O)COc3ccccc3)c2)no1 | - | MIC | ATCC90112 | >100 µg/mL |
| Cc1nc(N)nc(N)c1C#CC1CCCC1 | - | MIC | - | 0.1 µg/mL |
| CCCCCC(=O)O[C@H]1[C@H](OC(=O)CCCCC)[C@H](OCC23C4C=C(C(C)C)C2(C(=O)O)C(C=O)(C4)[C@@H]2CC[C@@H](C)[C@H]23)O[C@H](C)[C@H]1OC | - | MIC | 2867 | >125 µg/mL |
| CCn1cc(C(=O)O)c(=O)c2cc(F)c(N3CCN(CN4C(=O)C(=Nc5ccc(S(=O)(=O)Nc6ncnc(OC)c6OC)cc5)c5ccccc54)CC3)cc21 | - | MIC | - | 1.22 µg/mL |
| Cc1ccc(-c2cc(-c3ccc(Cl)cc3)nc(/N=C3\C(=O)Nc4ccccc43)n2)cc1 | - | MIC | - | 39.06 µg/mL |
| C[C@H]1[C@H](O)[C@@H](C)/C=C/C=C/C=C/C=C/C=C/C=C/C=C/[C@H](O[C@@H]2O[C@H](C)[C@@H](O)[C@H](N)[C@@H]2O)C[C@@H]2O[C@](O)(C[C@@H](O)C[C@@H](O)CC[C@H](O)[C@@H](O)C[C@@H](O)CC(=O)O[C@H]1C)C[C@H](O)[C@H]2C(=O)O | - | MIC | - | 20 µg/mL |
| COc1cc(O)c2c(c1)C(=O)c1c(cc3c(c1O)-c1c(cc(C)c(C(=O)NC(CO)C(=O)O)c1O)[C@H](OC1OC(C)C(N(C)C)C(OC4OCC(O)C(O)C4O)C1O)[C@H]3O)C2=O | - | MIC | IAM 4514 | 0.8 µg/mL |
| O=P([O-])(OCCBr)OCCCCCCCCCCCCCCCCOP(=O)([O-])OCCBr | - | MIC | 36556 | 6.25 µg/mL |
| Cc1cc(NC(=O)c2ccc(NC(=O)COc3ccc(Cl)cc3Cl)cc2)no1 | - | MIC | ATCC90112 | >100 µg/mL |
| CCCCCCCCCCCCCCCC(=O)NC1CC(O)C(O)NC(=O)C2C(O)C(C)CN2C(=O)C(C(O)CC(N)=O)NC(=O)C(C(O)Cc2ccc(O)c(OS(=O)(=O)O)c2)NC(=O)C2CC(O)CN2C(=O)C(C(C)O)NC1=O | - | MIC50 | YC203 | >2.5 µg/mL |
| COc1ccc(Cc2nc(CN3CCc4sccc4C3)n[nH]2)cc1 | agar | MIC | NCIM576 | 87.5 µg/mL |
| OCc1c(-c2ccc3c(c2)OCO3)sc2ccccc12 | - | MIC | Farwania | 12.5 µg/mL |
| CCCCCCCCCCCCCCCC(=O)N[C@H]1C[C@@H](O)[C@@H](O)NC(=O)[C@@H]2[C@@H](O)[C@@H](C)CN2C(=O)[C@H]([C@@H](C)O)NC(=O)[C@H]([C@H](O)[C@@H](O)c2ccc(O)cc2)NC(=O)[C@@H]2C[C@@H](O)CN2C(=O)[C@H]([C@@H](C)O)NC1=O | - | MIC50 | YC203 | >2.5 µg/mL |
| Cc1ccc(-c2cc(-c3ccc(Cl)cc3)nc(/N=C3\C(=O)N(CN(C)C)c4ccccc43)n2)cc1 | - | MIC | - | 19.53 µg/mL |
| C[C@@H](N1CCN(c2ccc(OC(F)(F)F)cc2)C1=O)C(O)(Cn1cncn1)c1ccc(F)cc1F | - | MIC | TIMM1740 | 0.03 µg/mL |
| Cc1cc(NC(=O)c2ccc(NC(=O)COc3ccccc3)cc2)no1 | - | MIC | ATCC90112 | >100 µg/mL |
| N/C(=N\O)c1ccc(OCCCCCOc2ccc(/C(N)=N\O)cc2)cc1 | - | MIC80 | H99 | >100 µg/mL |
| CN1CCN(c2n[nH]c(N3C(=O)CS[C@@H]3c3ccc4c(c3)OCO4)n2)CC1 | broth dilution | MIC80 | H99 | 1.56 µg/mL |
| Nc1ccccc1Cc1nc(CN2CCc3sccc3C2)n[nH]1 | agar | MIC | NCIM576 | 75 µg/mL |
| Cc1ccc(OCC(=O)Nc2ccc(C(=O)Nc3cc(C)on3)cc2)cc1 | - | MIC | ATCC90112 | >100 µg/mL |
| CCCCCOc1ccc(-c2cc(-c3ccc(C(=O)N[C@H]4C[C@@H](O)[C@@H](O)NC(=O)[C@@H]5[C@@H](O)[C@@H](C)CN5C(=O)[C@H]([C@H](O)CC(N)=O)NC(=O)[C@H]([C@H](O)[C@@H](O)c5ccc(O)c(OS(=O)(=O)O)c5)NC(=O)[C@@H]5C[C@@H](O)CN5C(=O)[C@H]([C@@H](C)O)NC4=O)cc3)no2)cc1 | - | MIC | FMR 8398 | 64 µg/mL |
| Cc1ccc(-c2cc(-c3ccc(Cl)cc3)nc(/N=C3\C(=O)Nc4ccc(Br)cc43)n2)cc1 | - | MIC | - | 19.53 µg/mL |
| C[C@@H](N1CCN(c2ccc(C(F)(F)F)cc2)C1=O)C(O)(Cn1cncn1)c1ccc(F)cc1F | - | MIC | TIMM1740 | <0.016 µg/mL |
| OCC1c2ccccc2SC1c1cc(Br)ccc1O | - | MIC | Farwania | 6 µg/mL |
| Cc1ccc(-c2cc(-c3ccc(Cl)cc3)nc(/N=C3\C(=O)N(CN4CCOCC4)c4ccc(Br)cc43)n2)cc1 | - | MIC | - | 39.06 µg/mL |

Again, the opening 9 rows:

compound | read by | read-out | strain or isolate | result
COCCNC(=O)[C@H]1[C@@H]2C[C@@H](O[C@@H]3O[C@H](C)[C@@H](O)[C@H](N)[C@@H]3O)/C=C/C=C/C=C/C=C/C=C/C=C/C=C/[C@H](C)[C@@H](O)[C@H](C)[C@H](C)OC(=O)C[C@H](O)C[C@H](O)[C@@H](O)CC[C@H](O)C[C@H](O)C[C@](O)(C[C@@H]1O)O2 | - | MIC | 3 strains | 0.8–3.2 µg/mL
CCn1cc(C(=O)O)c(=O)c2cc(F)c(N3CCN(CN4C(=O)/C(=N\c5ncc(Cc6cc(OC)c(OC)c(OC)c6)c(N)n5)c5cc(Br)ccc54)CC3)cc21 | - | MIC | - | 0.6 µg/mL
C[C@H]1[C@H](O)[C@@H](C)/C=C/C=C/C=C/C=C/C=C/C=C/C=C/[C@H](O[C@@H]2O[C@H](C)[C@@H](O)[C@H](N)[C@@H]2O)C[C@@H]2O[C@](O)(C[C@@H](O)C[C@@H](O)CC[C@H](O)[C@@H](O)C[C@@H](O)CC(=O)O[C@H]1C)C[C@H](O)[C@H]2C(=O)O | broth dilution | MIC | ATCC 32045 | 0.25 µg/mL
C[C@@H](N1CCN(c2ccc(OC(F)(F)C(F)F)cc2)C1=O)C(O)(Cn1cncn1)c1ccc(F)cc1F | - | MIC | TIMM1740 | <0.016 µg/mL
OCC1c2ccccc2SC1c1ccc2c(c1)OCO2 | - | MIC | Isolate 25 | 12.5 µg/mL
CCn1cc(C(=O)O)c(=O)c2cc(F)c(N3CCN(CN4C(=O)C(=Nc5ccc(S(=O)(=O)Nc6ncnc(OC)c6OC)cc5)c5cc(Cl)ccc54)CC3)cc21 | - | MIC | - | 2.44 µg/mL
Nc1ncc(/C=C/c2ccc([N+](=O)[O-])o2)nn1 | - | MIC | - | 5 µg/mL
CC(C(=O)O)N1C(=O)CSC1c1ccc(Cl)cc1 | broth dilution | EC50 | - | 33.91 µM
C[C@@H](n1ccn(-c2ccc(OCC(F)(F)C(F)F)cc2)c1=O)C(O)(Cn1cncn1)c1ccccc1F | - | MIC | TIMM1855 | 0.13 µg/mL